Measurements from paper PMC10100900, “Virtual Screening and In Vitro Experimental Verification of LuxS Inhibitors for Escherichia coli O157:H7” (Microbiology Spectrum, 2023).

Target: LuxS of E. coli (Escherichia coli O157:H7, UniProt Q8X902)
Experiment: AI-2 bioluminescence assay (V. harveyi BB170 reporter) of AI-2 production
Type: cell-based

Row | SMILES | IC50
1 | O=C(NCc1ccc2c(c1)CCN2C(=O)c1ccccc1)c1cc2ccccc2[nH]1 | 28.7 µM
2 | CC(=O)N1CCc2cc(CNC(=O)c3cc4ccccc4[nH]3)ccc21 | 17.9 µM
3 | O=C(CNc1ccc2ccccc2c1)N/N=C/c1cc2c(cc1Br)OCO2 | 23.7 µM
